Measurements: paper PMC10664964, “Structural and functional analysis of vaccinia viral fusion complex component protein A28 through NMR and molecular dynamic simulations” (PLOS Pathogens, 2023)

Legend:
[1] = target: mpox-H2 (aa 91-189), mpox virus ortholog of H2 (mpox virus) (UniProt P08583); experiment: ITC
[2] = target: T1, vaccinia virus soluble H2 protein, sH2 (residues 91-189) (vaccinia virus, UniProt P08583 91-189); experiment: ITC
T1 sequence: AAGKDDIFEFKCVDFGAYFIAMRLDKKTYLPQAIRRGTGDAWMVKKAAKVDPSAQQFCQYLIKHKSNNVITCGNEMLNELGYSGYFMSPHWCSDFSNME

With “mpox-A30 (aa 56-146), mpox virus ortholog of A28 (domain or fragment)” the Kd [1] was 5.3 µM and the stoichiometry N [1] was 1.

B1: vaccinia virus soluble A28 protein, sA28 (residues 56-146) (domain or fragment)
chain: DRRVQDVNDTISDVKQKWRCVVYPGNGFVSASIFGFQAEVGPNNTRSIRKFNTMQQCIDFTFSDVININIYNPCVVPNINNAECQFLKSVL
For B1, the Kd [2] was 4.3 µM, the dH [2] was -8.8 kcal/mol and the “stoichiometry N” value [2] was 1.
